Pooled drug test results. Numbers come from NIAID ChemDB, via PubChem.

Shared fields: tests in culture; agent: HIV-1; read-out: fold resistance

Fold resistance has wild type as its base.

smiles,changes,read by,strain or isolate,cells,result
CC(C)OC(=O)c1cc(NC(=S)OC(C)(C)C)ccc1Cl,RT-Y181C,syncytia,-,CEM,10.8
CCOCn1c(Sc2cc(C)cc(C)c2)c(CC)c(=O)[nH]c1=O,RT-K103N,syncytia,IIIB TIBO R82913-resistant (RT K103N),CEM,17.5
CCC(=O)c1ccc(F)c([C@@H]2C[C@@H]2NC(=O)Nc2ccc(C#N)cn2)c1O,NNRTI-resistant (RT K103S),β-galactosidase / luminescence,LAI,TZM-bl,22.7
Cc1occc1C(=S)Nc1ccc(Cl)c(/C=N/OC(C)(C)C)c1,RT-K103N,syncytia,IIIB,CEM,8
CC1=C(C(=O)Nc2ccc(Cl)c(C(=O)OC(C)C)c2)SCCO1,RT-L100I,syncytia,-,CEM,≥140
CC(C)[C@H](NC(=O)OCc1ccccn1)C(=O)N[C@@H](Cc1ccccc1)[C@@H](O)C[C@H](Cc1ccccc1)NC(=O)OCc1cccnc1,PR-L10R L63P V82T,p24,NL4-3,MT-4,3.75
Cc1cc(NS(=O)(=O)CC2CCCCC2)c(C)c(C(OC(C)(C)C)C(=O)O)c1-c1ccc2c(c1)CCCO2,PI-resistant ARP-11807 (L33F/I47A/L63P/A71V/V82A),luminescence,NL4-3,MT-4,1
Cc1cc(S(N)(=O)=O)ccc1NC(=O)COc1ccc(Cl)cc1C(=O)c1cc(Cl)cc(C#N)c1,RT-K103N,β-galactosidase,HXB2,HeLa + HELA CD4+,~1
C[C@H]1CO[C@@H]2Cn3cc(C(=O)NCc4ccc(F)cc4F)c(=O)c(O)c3C(=O)N12,M50I,RT activity,NL4-3,CBMC,0.9
CC(C)=CCOc1cc(NC(=S)c2ccsc2C)ccc1Cl,RT-L74V,cytopathic effect / XTT,NL4-3 (RT L74V),CEM + CEM-SS,1
Cc1cc(S(N)(=O)=O)ccc1NC(=O)COc1ccc(Cl)cc1C(=O)c1cc(F)cc(C(F)(F)F)c1,RT-L100I,β-galactosidase,HXB2,HeLa + HELA CD4+,~1
CCCCOC(=O)c1cc(NC(=S)OC(C)C)ccc1Cl,RT-L100I,syncytia,-,CEM,15
Cc1cc(S(N)(=O)=O)ccc1NC(=O)COc1ccc(Cl)cc1C(=O)c1cc(F)cc(C#N)c1,RT-G190A,β-galactosidase,HXB2,HeLa + HELA CD4+,~1
CC(C)=CCOc1cc(NC(=S)c2ccoc2C)ccc1Cl,RT-L74V,cytopathic effect / XTT,NL4-3 (RT L74V),CEM + CEM-SS,1
Cc1cc(C#N)cc(C(=O)c2cc(Cl)ccc2OCC(=O)Nc2ccc(S(N)(=O)=O)nc2C)c1,RT-K103N V108I,β-galactosidase,HXB2,HeLa + HELA CD4+,~1
C/C=C/COc1cc(NC(=S)OC(C)C)ccc1Cl,RT-V106A,syncytia,-,CEM,12.5
O=C1Nc2ccc(F)c(F)c2[C@@](/C=C/C2CC2)(C(F)(F)F)N1,RT-Y188L,-,-,-,60.5
CCc1c(Sc2cc(C)cc(C)c2)n(COCc2ccccc2)c(=O)[nH]c1=O,RT-Y181I,syncytia,IIIB,CEM,110
C=CCOc1cc(NC(=S)OC(C)C)ccc1C#N,RT-V106A,syncytia,-,CEM,7.99
O=C1Nc2ccc(Cl)cc2[C@@](C#CC2CC2)(C(F)(F)F)N1,RT-K103N,-,-,-,5.26
CC(C)OC(=S)Nc1ccc(Cl)c(C(=O)OCC(F)(F)F)c1,RT-Y181C,syncytia,-,CEM,>28.6
CC(C)c1c(Sc2ccccc2)n(COCc2ccccc2)c(=O)[nH]c1=O,RT-Y181I,syncytia,IIIB,CEM,1670
C/C=C/CSc1cc(NC(=S)c2ccsc2C)ccc1Cl,RT-Y188C,p24,NL4-3,CEM + CEM-SS,5
CN1CCN(C(=O)c2ccc3c(=O)c4ccccc4[nH]c3c2)CC1,RT-Y181C,syncytia,-,CEM,70.9
Cc1ccc(C2CC2)c(-c2ccc3c(c2C)CCCO3)c1[C@H](OC(C)(C)C)C(=O)O,INSTI-resistant (IN-Q148H),luminescence,NL4-3,MT-4,1
C/C=C\COc1cc(NC(=S)OC(C)C)ccc1Cl,RT-Y181C,syncytia,-,CEM,150
N#Cc1cc(Cl)cc(Oc2c(Br)ccc(CC(=O)Nc3ccc(S(N)(=O)=O)cc3Cl)c2F)c1,V106A,-,-,MT-4,1
CCOC(=O)c1cc(NC(=S)OC(C)C)ccc1Cl,RT-Y181C,syncytia,-,CEM,151
CCOCn1c(Sc2ccccc2)c(CC)c(=O)[nH]c1=O,RT-Y181C,syncytia,IIIB,CEM,108
CC(C)OC(=O)c1cc(NC(=O)OCC2CC2)ccc1Cl,RT-E138K,syncytia,-,CEM,13.3
CC(C)OC(=O)c1cc(NC(=S)OC(C)C)ccc1Cl,RT-Y188L,syncytia,IIIB,CEM,69

The last 3 rows once more:

smiles,changes,read by,strain or isolate,cells,result
CCOCn1c(Sc2ccccc2)c(CC)c(=O)[nH]c1=O,RT-Y181C,syncytia,IIIB,CEM,108
CC(C)OC(=O)c1cc(NC(=O)OCC2CC2)ccc1Cl,RT-E138K,syncytia,-,CEM,13.3
CC(C)OC(=O)c1cc(NC(=S)OC(C)C)ccc1Cl,RT-Y188L,syncytia,IIIB,CEM,69

Rows are shuffled and stem from different studies. Blank or dashed fields: not listed here.